Earlier results in US20250327138A1, “METHODS AND COMPOSITIONS FOR DETECTING GUANITOXIN PRODUCING BACTERIA” (published 2025).

Columns and labels:
[1] = i.p.

For “(5S)-5-[(dimethylamino)methyl]-1-[hydroxy(methoxy)phosphoryl]oxy)-4,5-dihydro-1H-imidazol-2-amine”, the LD50 [1] is listed as 0.02 mg/kg and the “inhibition of acetylcholinesterase (mechanism)” value (acetylcholinesterase) is listed as “irreversible inhibitor”.
